Article PMC13572408
The exact form of at least one protein or probe is not confirmed. Protein sequences can lack the tags named with them.

Experiments:
[1] = biological target: T1, His6-AstR (Acinetobacter baumannii ATCC 17978 (17978VU)) (UniProt A0A7U3Y4V5); assay: EMSA; settings: 20 mM Tris-HCl, 2.5 mM MgCl2, 0.45 mM EDTA, 50 mM NaCl, 10% glycerol, 5 mM DTT, pH 7.5, room temperature 30 min, 5 nM DNA, 7.5% TGX gel in TBE, recombinant protein, protein details: N-terminal His6 (pET15b), label: 5'-Cy5.5 on reverse primer, probe letters rebuilt from the primers and the genome
T1 sequence (looked up, limits assumed): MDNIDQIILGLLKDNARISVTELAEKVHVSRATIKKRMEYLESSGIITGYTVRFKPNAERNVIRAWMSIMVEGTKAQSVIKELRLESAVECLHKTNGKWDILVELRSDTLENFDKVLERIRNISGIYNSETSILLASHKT

[2] = biological target: T1, His6-AstR (Acinetobacter baumannii ATCC 17978 (17978VU)); assay: EMSA supershift; settings: anti-His antibody; 20 mM Tris-HCl, 2.5 mM MgCl2, 0.45 mM EDTA, 50 mM NaCl, 10% glycerol, 5 mM DTT, pH 7.5, room temperature 30 min; 5 nM DNA; 7.5% TGX gel in TBE; recombinant protein; protein details: N-terminal His6 (pET15b); label: 5'-Cy5.5 on reverse primer; probe letters rebuilt from the primers and the genome

Measured: binding result

CTTATCTAGTCCATTAAATTGAATTATTCGGGTTAACTGATGACCTTATTATTCAAAATCAAATTGATTCACAAAATTTGTAATTCAGTCAAAAATGAATTATTTTTTACCAATCTGATAATTGACAATTACATT (double strand) [astNp 135 bp]
binds: [1]; 5 mM ornithine + succinate, binding not dramatically altered | [1]; 0.5-10 uM protein, no ligand | [2]
